Measured values reported in paper PMC12576825.

Key:
[1] = test system: C=CC(CC)(C(=O)O)C(=O)O; test: purified protein; conditions: mutant printed as ICPLLG
[2] = test system: C=CC(C)(C(=O)O)C(=O)O; test: purified protein; conditions: mutant printed as ICPLLG

Which results are given for “arylmalonate decarboxylase (AMDase) (Bordetella bronchiseptica; A125P/C188G/G74C/M159L/V156L/V43I)”?
Km [1]: 160 ± 20 µM; kcat [1]: 0.0050 ± 0.0003 s⁻¹; Km [2]: 110 ± 20 µM; kcat [2]: 0.023 ± 0.001 s⁻¹
